Measured values from several laboratories, pooled; numbers as filed in NIAID ChemDB.

All rows: whole-cell or culture tests; organism: Hepatitis B virus

ECn is the concentration giving n% inhibition of infection, replication or growth. An empty or dashed field is not shown. a–b is a range or a potency band. Conditions beyond the fields shown may differ between rows. Percent inhibition refers to the dose given; in toxicity tests it is the harm to the cells.

smiles,cells,read by,measure,strain,dose,result
CC(C)OC(=O)CCC1COP(=O)(CO[C@H](C)Cn2cnc3c(NC(=O)c4ccccc4)ncnc32)OC1,HepaRG,PCR,inhibition,Genotype D,1 µM,50–80%
COc1ccc([C@H]2OC[C@H]3[C@@H]2CO[C@@H]3c2cc(OC)c(O)c(OC)c2)cc1O,HepG2.2.15,ELISA / antigen,EC50,-,-,50.98 µM
CC1=C(O)C(=O)C=C2C1=CC=C1[C@@]2(C)CC[C@@]2(C)[C@@H]3C[C@](C)(C(=O)N4CCOCC4)CC[C@]3(C)CC[C@]12C,HepG2 2.2.15,PCR,inhibition,-,25 µM,26%
CC(C)OC(=O)CC1COP(=O)(CO[C@H](C)Cn2cnc3c(NC(=O)c4ccccc4)ncnc32)OC1,PHH,PCR,inhibition,Genotype D,1 µM,≤30%
Nc1ncnc2c1ncn2CCOCP(=O)(O)O,HepG2,-,inhibition,WILD TYPE,0.05 µM,49%
O=C(O)c1ccccc1O,HepG2.2.15,ELISA / antigen,EC50,-,-,4650 µM
CC(C)OC(=O)CCC1COP(=O)(CO[C@H](C)Cn2cnc3c(N)ncnc32)OC1,PHH,PCR,inhibition,Genotype D,1 µM,50–80%
CCC(CCC(C)C1CCC2C3C[C@@H](O)[C@@]4(O)C[C@@H](O)CCC4(C)C3CCC12C)C(C)C,HepG2 2.2.15,antigen,inhibition,-,12.5 µg/mL,21.2%
Nc1ccn([C@@H]2CS[C@H](CO)O2)c(=O)n1,HepG2,-,inhibition,WILD TYPE,0.01 µM,65%
Nc1ncnc2c1ncn2CCOCP(=O)(O)O,Huh7,-,EC50,Mutation M552I,-,4.5 µM
C=C1CC[C@@H](O)[C@]2(C)CC[C@@H](C(C)C)[C@H](O)[C@@H]12,HepG2.2.15,ELISA / antigen,EC50,-,-,155 µM
Nc1nc2c(ncn2CCC(CO)CO)c(=O)[nH]1,HepG2,-,EC50,Mutation L526M,-,103 µM
CC1=C(O)C(=O)C=C2C1=CC=C1[C@@]2(C)CC[C@@]2(C)[C@@H]3C[C@](C)(C(=O)O)CC[C@]3(C)CC[C@]12C,HepG2 2.2.15,ELISA,inhibition,-,25 µM,25.9%
CC(C)OC(=O)CC1COP(=O)(CO[C@H](C)Cn2cnc3c(N)ncnc32)OC1,HepaRG,PCR,inhibition,Genotype D,1 µM,≤30%
CC[C@H](CCC(C)[C@H]1CC[C@H]2[C@@H]3CCC4=CC(=O)CC[C@]4(C)[C@H]3CC[C@]12C)C(C)C,HepG2.2.15,PCR,EC50,-,-,166 µM
CC1=C(O)C(=O)C=C2C1=CC=C1[C@@]2(C)CC[C@@]2(C)[C@@H]3C[C@](C)(C(=O)NC(C)C)CC[C@]3(C)CC[C@]12C,HepG2 2.2.15,PCR,inhibition,-,25 µM,35.2%
COc1cc2ccc(=O)oc2cc1OC,HepG2.2.15,PCR,EC50,-,-,206 µM
CCOC(=O)CC1COP(=O)(CO[C@H](C)Cn2cnc3c(NC(=O)c4ccccc4)ncnc32)OC1,HepaRG,PCR,inhibition,Genotype D,1 µM,≤30%
COC(=O)[C@]1(C)CC[C@]2(C)CC[C@]3(C)C4=CC=C5C(=CC(=O)C(OC)=C5C)[C@]4(C)CC[C@@]3(C)[C@@H]2C1,HepG2 2.2.15,PCR,inhibition,-,25 µM,10.5%
COc1cc(C=O)cc(OC)c1O,HepG2.2.15,ELISA / antigen,EC50,-,-,763 µM

A second listing of 3 rows from above:

smiles,cells,read by,measure,strain,dose,result
CC(C)OC(=O)CCC1COP(=O)(CO[C@H](C)Cn2cnc3c(N)ncnc32)OC1,PHH,PCR,inhibition,Genotype D,1 µM,50–80%
O=C(O)c1ccccc1O,HepG2.2.15,ELISA / antigen,EC50,-,-,4650 µM
CC(C)OC(=O)CC1COP(=O)(CO[C@H](C)Cn2cnc3c(NC(=O)c4ccccc4)ncnc32)OC1,PHH,PCR,inhibition,Genotype D,1 µM,≤30%